Anti-infective test results gathered from many reports (values: NIAID ChemDB through PubChem).

All rows: tests in culture; agent: HIV-1; cell line: MT-4; measure: EC50

Blank or dashed fields: not listed here.

structure	strain	mutations	method	value
O=C(O)c1cn(C2CC2)c2nc(N3CCN(c4nc5ccccc5s4)CC3)ccc2c1=O	IIIB	-	cytopathic effect / MTT	0.05 µM
Cc1cc(C#N)cc(C)c1Oc1nc(Nc2ccc(NS(=O)(=O)c3ccc(C#N)cc3)cc2)nc2ccsc12	IIIB	-	MTT	0.32 µM
Cc1cc(/C=C/C#N)cc(C)c1Oc1nc(NC2CCN(Cc3cccnc3)CC2)nc2ccsc12	RES056	-	MTT	0.0125 µM
CC(=O)CN1Cc2cccc3[nH]c(=O)n(c23)CC1C	IIIB	-	cytopathic effect / MTT	>760 µM
CSCC[C@H](C)OC(=O)[C@@H](N)c1ccccc1-c1c[nH]c2ccccc12	NL4-3	-	MTT	4.4 µM
CC(=O)OC[C@H]1O[C@@H](Sc2nnc(-c3ccc(C)cc3)n2N)[C@H](OC(C)=O)[C@@H](OC(C)=O)[C@@H]1OC(C)=O	IIIB	-	-	>100 µM
CCOC(CSc1nc(Cc2ccccc2)c(C(C)C)c(=O)[nH]1)OCC	IIIB	-	cytopathic effect / MTT	>100 µM
Cc1cc(C#N)cc(C)c1Oc1nc(NC2CCN(S(=O)(=O)N3CCOCC3)CC2)nc2ccsc12	IIIB	-	MTT	0.22 µM
O=C(CCCCCNCCCCNCc1ccccc1)Nc1ccn([C@H]2CS[C@H](COC(=O)CCCCCNCCCCNCc3ccccc3)O2)c(=O)n1	LAV	-	syncytia	10 µM
CCc1c(Cc2cccc3ccccc23)nc(SCC2OCCO2)[nH]c1=O	IIIB	-	cytopathic effect / MTT	>100 µM
COCC[C@H](C)OC(=O)[C@@H](N)c1ccccc1-c1c[nH]c2ccccc12	NL4-3	-	MTT	26 µM
Cc1cn([C@H]2C[C@@H](OCCP(=O)(O)O)CO2)c(=O)[nH]c1=O	-	-	-	140 µM
Nn1c(S[C@@H]2O[C@H](CO)[C@@H](O)[C@H](O)[C@H]2O)nnc1-c1ccc(Cl)cc1	IIIB	-	-	>100 µM
Cc1cc(/C=C/C#N)cc(C)c1Oc1nc(NC2CCN(Cc3ccccc3C#N)CC2)nc2ccsc12	IIIB	NNRTI-resistant (RT E138K)	MTT	0.0432 µM
O=C(CCCCCNCCCCNCc1ccccc1)Nc1ccn([C@@H]2CS[C@@H](CO)O2)c(=O)n1	LAV	-	syncytia	20 µM
Cc1cc(C#N)cc(C)c1Oc1nc(NC2CCN(S(=O)(=O)c3ccc(-c4ccccc4)cc3)CC2)nc2ccsc12	IIIB	-	MTT	1.1 µM
Cc1cc(/C=C/C#N)cc(C)c1Oc1nc(NC2CCN(Cc3cccc(C#N)c3)CC2)nc2ccsc12	IIIB	NNRTI-resistant (RT F227L V106A)	MTT	0.0263 µM
CC(=O)N1Cc2cccc3[nH]c(=O)n(c23)CC1C	IIIB	-	cytopathic effect / MTT	>175 µM
CSCC[C@H](C)OC(=O)[C@@H](NC(=O)CSC)c1ccccc1-c1c[nH]c2ccccc12	NL4-3	-	MTT	20 µM
Nc1cc2c(=O)c(C(=O)O)cn(C3CC3)c2cc1N1CCN(c2nc3ccccc3s2)CC1	IIIB	-	cytopathic effect / MTT	>0.076 µg/mL
CSCC[C@H](OC(=O)[C@@H](N)c1ccccc1-c1c[nH]c2ccccc12)c1ccccc1	NL4-3	-	MTT	10 µM
COC(=O)c1ccc(C2(C)OS(=O)(=O)C=C2N)cc1	IIIB	-	cytopathic effect / MTT	>125 µg/mL
Nc1ccn([C@H]2CS[C@@H](COC(=O)CCCCCNCCCCCNCc3ccccc3)O2)c(=O)n1	LAV	-	syncytia	2.03 µM
CC1(Cc2ccccc2)OS(=O)(=O)C(c2ccccc2)=C1N	IIIB	-	cytopathic effect / MTT	>125 µg/mL
Nc1ccn([C@H]2CS[C@@H](COC(=O)CCCCCNCc3ccccc3)O2)c(=O)n1	LAV	-	syncytia	10 µM
Cc1cc(C#N)cc(C)c1Oc1nc(NC2CCN(S(=O)(=O)c3ccc4oc(=O)ccc4c3)CC2)nc2ccsc12	IIIB	-	MTT	0.29 µM
Cc1cc(/C=C/C#N)cc(C)c1Oc1nc(NC2CCN(Cc3ccccc3Cl)CC2)nc2ccsc12	IIIB	NNRTI-resistant (RT K103N)	MTT	0.0291 µM
Nn1c(SC(c2ccccc2)c2ccccc2)nnc1-c1ccc(Cl)cc1	NNRTI-resistant N119	RT-Y181C	-	>100 µM
Cc1cc(/C=C/C#N)cc(C)c1Oc1nc(NC2CCN(Cc3ccccn3)CC2)nc2ccsc12	IIIB	NNRTI-resistant (RT E138K)	MTT	0.00746 µM
COc1ccc(-c2nnc(SSc3nnc(-c4ccc(OC)cc4)n3N)n2N)cc1	NNRTI-resistant N119	RT-Y181C	-	>100 µM
Nc1ccn([C@H]2CS[C@@H](COC(=O)CCCCCNCCCCNCc3ccccc3)O2)c(=O)n1	LAV	-	syncytia	1.8 µM
CC1(C)C(N)=C(c2ccccc2)S(=O)(=O)N1Cc1ccccc1	IIIB	-	cytopathic effect / MTT	>125 µg/mL
CC(C)c1c(Cc2ccccc2)nc(SCC2OCCO2)[nH]c1=O	IIIB	-	cytopathic effect / MTT	>100 µM
Nc1cc2c(=O)c(C(=O)O)cn(N)c2cc1N1CCN(c2ccccn2)CC1	IIIB	-	cytopathic effect / MTT	2.23 µM
Cn1cc(C(=O)O)c(=O)c2cc(N)c(N3CCN(c4nc5ccccc5o4)CC3)cc21	IIIB	-	cytopathic effect / MTT	0.015 µg/mL
COc1ccccc1N1CCN(c2cc3c(cc2N)c(=O)c(C(=O)O)cn3C2CC2)CC1	IIIB	-	cytopathic effect / MTT	>23.77 µM
Cc1cc(C#N)cc(C)c1Oc1nc(NC2CCN(Cc3ccc(S(N)(=O)=O)cc3)CC2)nc2sccc12	IIIB	NNRTI-resistant (RT Y181C)	MTT	0.00764 µM
Cc1ccc(-c2nnc3sc(CN4C(=O)c5ccccc5C4=O)nn23)cc1	IIIB	-	-	>100 µM
CC(C)=C(C)CN1Cc2cccc3[nH]c(=O)n(c23)CC1C	IIIB	-	cytopathic effect / MTT	>876 µM
CCc1c(Cc2ccccc2)nc2n(c1=O)C(OCCO)CS2	IIIB	-	cytopathic effect / MTT	>100 µM
CC1Cn2c(=O)[nH]c3cccc(c32)CN1CCO	IIIB	-	cytopathic effect / MTT	>776 µM
CCc1c(Cc2ccccc2)n2c(nc1=O)SCC2CBr	IIIB	-	cytopathic effect / MTT	>100 µM
Cc1cn([C@@H]2OC[C@H](OCCP(=O)(O)O)[C@H]2O)c(=O)[nH]c1=O	-	-	-	>250 µM
CN(C)c1cc2c(=O)c(C(=O)O)cn(C)c2cc1N1CCN(c2ccccn2)CC1	IIIB	-	cytopathic effect / MTT	>13.03 µM
CCCCCCCCCC(=O)O[C@@]12[C@H](OCOCc3ccccc3)[C@@H](C)[C@@]3(O)[C@@H](C=C(CO)C[C@]4(O)C(=O)C(C)=C[C@@H]34)[C@@H]1C2(C)C	IIIB	-	MTT	0.00027 µg/mL

6 of the rows above, restated:

| structure | strain | mutations | method | value |
|---|---|---|---|---|
| Nc1cc2c(=O)c(C(=O)O)cn(N)c2cc1N1CCN(c2ccccn2)CC1 | IIIB | - | cytopathic effect / MTT | 2.23 µM |
| CCc1c(Cc2ccccc2)nc2n(c1=O)C(OCCO)CS2 | IIIB | - | cytopathic effect / MTT | >100 µM |
| CC(=O)CN1Cc2cccc3[nH]c(=O)n(c23)CC1C | IIIB | - | cytopathic effect / MTT | >760 µM |
| Cn1cc(C(=O)O)c(=O)c2cc(N)c(N3CCN(c4nc5ccccc5o4)CC3)cc21 | IIIB | - | cytopathic effect / MTT | 0.015 µg/mL |
| COCC[C@H](C)OC(=O)[C@@H](N)c1ccccc1-c1c[nH]c2ccccc12 | NL4-3 | - | MTT | 26 µM |
| Cc1cc(C#N)cc(C)c1Oc1nc(NC2CCN(S(=O)(=O)N3CCOCC3)CC2)nc2ccsc12 | IIIB | - | MTT | 0.22 µM |

Conditions beyond the fields shown may differ between rows. ECn is the concentration giving n% inhibition of infection, replication or growth.